Data reported in ChEMBL document CHEMBL4177581, “The compound (3-{5-[(2,5-dimethoxyphenyl)amino]-1,3,4-thiadiazolidin-2-yl}-5,8-methoxy-2H-chromen-2-one) inhibits the prion protein conversion from PrPC to PrPSc with lower IC50 in ScN2a cells” (Bioorg Med Chem, 2017).

Protein sequences, listed by entry. Tags and fused reporters are not part of them.
UniProt P04273, whole entry: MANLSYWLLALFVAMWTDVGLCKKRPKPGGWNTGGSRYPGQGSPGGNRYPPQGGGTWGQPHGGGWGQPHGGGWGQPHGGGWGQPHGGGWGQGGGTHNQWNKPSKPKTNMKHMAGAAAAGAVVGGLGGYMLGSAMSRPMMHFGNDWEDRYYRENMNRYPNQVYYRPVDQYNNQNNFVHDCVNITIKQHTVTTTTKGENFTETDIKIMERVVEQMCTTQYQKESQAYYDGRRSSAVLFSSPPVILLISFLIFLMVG

Molecular target: Major prion protein (Mesocricetus auratus) (UniProt P04273)
Test: Binding affinity to Syrian hamster PrPC assessed as inhibition of PrPC protein conversion to PrPSc by measuring PrPSc level relative to untreated control
Set-up: concentration or dose not given beside the values

O=C(CSc1ncnc2sc3c(c12)CCC3)NCC1CCCO1 (stereo unspecified)
Activity: 93.7%
